Construct, isoform or probe ends are uncertain for at least one entry. For some assays here: Negatives hold for the conditions tested. For some assays here: The comparison behind a weaker result is the experiment's own reference, which may not be listed here. For some assays here: At least one verdict was read from the data and is not stated in words by the source. For some assays here: Tags and fusion partners may be left off the protein sequences shown.
What was measured:
[1] = molecular target: ArcA-P (phosphorylated ArcA) (UniProt A0A0F6BBE4); assay: EMSA; settings: 100 mM Tris-Cl pH 7.4, 100 mM KCl, 10 mM MgCl2, 10% glycerol, 2 mM DTT, 20 min at 30 C, 20 or 60 ng PCR product, 4% native PAGE, ethidium bromide, recombinant protein, protein details: His-tag, probe letters rebuilt from the primers and the genome
[2] = molecular target: T1, ArcA (non-phosphorylated) (UniProt A0A0F6BBE4); assay: EMSA; settings: non-phosphorylated, non-specific, 100 mM Tris-Cl pH 7.4, 100 mM KCl, 10 mM MgCl2, 10% glycerol, 2 mM DTT, 20 min at 30 C, 20 or 60 ng PCR product, 4% native PAGE, ethidium bromide, recombinant protein, protein details: His-tag, probe letters rebuilt from the primers and the genome
T1 sequence (looked up, limits assumed): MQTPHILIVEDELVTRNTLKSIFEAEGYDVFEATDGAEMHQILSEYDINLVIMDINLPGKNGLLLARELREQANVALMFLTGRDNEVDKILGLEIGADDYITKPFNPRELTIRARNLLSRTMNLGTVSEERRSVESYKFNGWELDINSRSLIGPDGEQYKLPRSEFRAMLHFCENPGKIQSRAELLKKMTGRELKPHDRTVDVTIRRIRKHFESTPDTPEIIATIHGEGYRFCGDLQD

[3] = negative control retarded only above 1200 nM

Sequence | binding result ([1]; 3-fold excess (60 ng), with W1) | binding result [2, 3] | other results
GAGCAGACAAATATTTGCATAGCGTGAATATGTCAAAATTGATCTGAATTCCTATAACCAGGATTTTCAATACAAGTTCTAAATTAATCTGGATC (double strand) [W3] | no binding | binds more weakly | –
GAGCAGACAAATATTTGCATAGCGTGAATATGTCAAAATTGATCTGAATTCCTATAACCAGGATTTTCAATACAAGTTCTAAATTAATCTGGATCAATAAATGTTAAATTATAAGAACAAATGTGATCTGTATTAGATCACTTATTACTTCATTGTGGGTATATTCATCACGCTTTTATAACCATAACGATGGAGCGGGT (double strand) [W1] | – | – | binding result ([1]; with 3-fold excess W2 and W3 present): binds; binding result ([2]; shift only above 1200 nM): binds more weakly
TATTAGATCACTTATTACTTCATTGTGGGTATATTCATCACGCTTTTATAACCATAACGATGGAGCGGGT (double strand) [W2] | no binding | binds more weakly | –
AATTTTTTCATACCCGCTCCATCGTTATGGTTATAAAAGCGTGATGAATATACCCACAATGAAGTAATAAGTGATCTAATACAGATCACATTTGTTCTTATAATTTAACATTTATTGATCCAGATTAATTTAGAACTTGTATTGAAAATCCTGGTTATAGG (double strand) [W4] | – | – | binding result ([1]; W5 present in the same reaction): binds
AATTTTTTCATACCCGCTCCATCGTTATGGTTATAAAAGCGTGATGAATATACCCACAATGAAGTAATAAGTGATCTAATA (double strand) [W5] | – | – | binding result ([1]; with W4): no binding

Source: publication PMC3358236
